Anti-infective test results gathered from many reports (values: NIAID ChemDB through PubChem).

Shared fields: cytotoxicity tests; cells: H9; method: cell count; endpoint: CC50

Lines come from different laboratories, so protocols vary. CCn is the concentration with n% toxicity to the cells.

SMILES	value
COc1cc2c(cc1OCc1ccccc1)C(Cc1ccc(Cl)cc1)N(Cc1ccccc1)CC2	11.9 µg/mL
CC1=C(O)C2=C(O[C@H](c3ccccc3)CC2=O)C(C)(C)C1=O	1.89 µg/mL
COc1ccc2c(OC)c3ccoc3nc2c1OC	22.5 µg/mL
COc1c(C)c(O)c2c(c1C)OC(c1ccccc1)CC2=O	1.77 µg/mL
COc1c2c(nc3ccccc13)O[C@@H](C(C)(C)O)C2	>100 µg/mL
Cc1cc(=O)oc2c3c(ccc12)OC(C)(C)[C@H](OC(=O)C12CCC(C)(C(=O)O1)C2(C)C)[C@@H]3OC(=O)C12CCC(C)(C(=O)O1)C2(C)C	>38.9 µM
COc1cc2ccc(=O)oc2c(CC=C(C)C)c1OC	21.1 µg/mL
COc1cc2c(cc1O)[C@@H](Cc1ccc(O)cc1)NCC2	>100 µg/mL
Cc1cn([C@H]2C[C@H](N=[N+]=[N-])[C@@H](CO)O2)c(=O)[nH]c1=O	500 µg/mL
CN1CCc2cc3c(c4c2[C@H]1Cc1ccc(O)cc1-4)OCO3	7.8 µg/mL
COc1cc2oc(-c3ccccc3)cc(=O)c2c(O)c1O	11.5 µg/mL
COc1ccc([C@H](O)CNC(=O)c2ccccc2)cc1	21.5 µg/mL
COc1cc2c3c(c1OC)-c1cc(O)ccc1C[C@H]3N(C)CC2	29 µg/mL
Cc1cn([C@H]2C[C@H](N=[N+]=[N-])[C@@H](CO)O2)c(=O)[nH]c1=O	500 µg/mL
COc1c(C)c(O)c(C=O)c2c1C(O)C[C@@H](c1ccccc1)O2	24.2 µg/mL
COc1cc2c(cc1OC)C(Cc1ccc(O)cc1)N(C)CC2	1.77 µg/mL
Cc1c(O)c(C=O)c2c(c1O)C(=O)C[C@@H](c1ccccc1)O2	2.15 µg/mL
COc1c(O)cc2c3c1-c1cc(O)ccc1C[C@H]3N(C)CC2	35.2 µg/mL

A second listing of 2 rows from above:

SMILES	value
Cc1cn([C@H]2C[C@H](N=[N+]=[N-])[C@@H](CO)O2)c(=O)[nH]c1=O	500 µg/mL
Cc1cn([C@H]2C[C@H](N=[N+]=[N-])[C@@H](CO)O2)c(=O)[nH]c1=O	500 µg/mL